Values of other authors as cited in PMC3066103.

The chains behind the UniProt entries cited, without tags or fusion partners. Residues count along the entry.
UniProt P58335, 40-217: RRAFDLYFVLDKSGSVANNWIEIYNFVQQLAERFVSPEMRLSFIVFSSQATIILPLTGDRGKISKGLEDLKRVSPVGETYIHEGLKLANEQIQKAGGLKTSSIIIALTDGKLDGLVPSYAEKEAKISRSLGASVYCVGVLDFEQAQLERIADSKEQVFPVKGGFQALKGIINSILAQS

Target: CMG-2 VWA domain (Homo sapiens) (UniProt P58335)

With “protective antigen (PA) (from UniProt P13423)” as the substance, how does the Kd read?
The Kd was 0.2 nM.
